Results on 15 sequences are retold here after paper PMC7356157 (Microorganisms, 2020).

Where “and” joins values, the source holds several entries; their conditions need not be identical. Identical values can stand only once. Where a sequence shows no end group, the ends are not given.

This data set can be described thus: general procedure: Fmoc solid-phase peptide synthesis; Rink amide resin (100 mg, 0.46 meq/g substitution); DCC / 6-Cl-HOBt. The note with it: whole synthesis, 210 nm, scale of the general procedure 100 mg resin.

Turning to KKMKKALQYIKLLK, the “final HPLC purity” value stood at 99%.
The same measure, in the same setting: in the case of RYRRKKKMKKA it was 97%; in that of RKKKMKKALQY, 98%; in that of KMKKALQYIKLLKE, 71%.
For MKKALQYIKLLKE, the “final HPLC purity” value was determined as 98%.
Still for that read-out and setting: in the case of RYRRKKKMKKALQYIKL it was 100%; in that of KMKKALQY, 98%.
For KKMKKALQYIKL, the “final HPLC purity” value was 97%.
With ALQYIKLLKE, the “final HPLC purity” value turned out to be 99%.
Consider RYRRKKKMKKALQY, for which the “final HPLC purity” value was determined as 98%.
With RYRRKKKMKKALQYIKLLKE, the “final HPLC purity” value was found to be 96%.
On to RKKKMKKALQYIKLLKE, for which the “final HPLC purity” value (run 1) was 86% and 95%.
KKKMKKALQYIKLLKE: the “final HPLC purity” value was 74%.
Still for that read-out and setting: for KKMKKALQYIKLLKE the value was 90%; for RYRRKKKMKK, 97%.
